Compound potency records, mixed from different reports. Data source: NIAID ChemDB in PubChem.

All rows: growth or infection tests; organism: HIV-1; measure: inhibition

Lines come from different laboratories, so protocols vary. Blank or dashed fields: not listed here. Inhibition is in % at the dose shown (toxicity tests: loss of growth or viability).

compound	strain	cell line	read by	conditions	tested at	result
Cc1cn([C@H]2C[C@H](N=[N+]=[N-])[C@@H](COP(=O)(O)OC[C@H]3OC(O)[C@H](O)[C@@H](O)[C@@H]3O)O2)c(=O)[nH]c1=O	LAV-Bru	CEM	RT activity	26 d	25 µM	93%
Nc1ncnc2c1ncn2[C@H]1CC[C@@H](CO)O1	LAV-1	U-937	virus yield		10 µM	90%
CCNc1cccnc1N1CCN(C(=O)c2cc3cc(OC)ccc3[nH]2)CC1	Seropositive clinical isolate D	PBMC	MTT		1 µM	48%
Oc1ccc(/C=C/c2cc(O)cc(O)c2)cc1	EJC-R2	PBMC	p24	clinical isolate	5 µM	0%
COc1ccccc1CN[C@H]1C2CCN(CC2)[C@H]1C(c1ccccc1)c1ccccc1	BaL	Macrophage + Monocytes/macrophages	RT activity		0.01 µM	1%
O=c1[nH]cnc2c1ncn2[C@H]1CC[C@@H](CO)O1	SF162 R5	PBL (activated) + PBL	RT activity		9 µM	49%
O=C(O)P(=O)(O)O	IIIB	PBL		10 d	64 µM	70%
Nc1ccn([C@H]2CC[C@@H](CO)O2)c(=O)n1	LAV-1	HT4 + HT4-6C	syncytia		0.00316 µM	41%
Cc1cn([C@H]2C[C@H](N=[N+]=[N-])[C@@H](COP(=O)(O)OC[C@H]3OC(O)[C@@H](O)[C@@H](O)[C@@H]3O)O2)c(=O)[nH]c1=O	LAV-Bru	CEM	RT activity	22 d	0.2 µM	0%
O=C1N(Cc2ccc(CO)cc2)[C@H](Cc2ccccc2)[C@H](O)[C@@H](O)[C@@H](Cc2ccccc2)N1Cc1ccc(CO)cc1	HXB2	PBMC	p24		0.14 µM	90%
Nc1ccn([C@H]2CC[C@@H](CO)O2)c(=O)n1	SF162 R5	PBL (resting) + PBL	RT activity		0.2 µM	95%
CC(C)(C)NC(=O)[C@@H]1C[C@@H]2CCCC[C@@H]2CN1C[C@@H](O)[C@H](Cc1ccccc1)NC(=O)[C@H](CC(N)=O)NC(=O)c1ccc2ccccc2n1	BaL	Macrophage + Monocytes/macrophages	p24		2 µM	98%
O=c1[nH]cnc2c1ncn2[C@H]1CC[C@@H](CO)O1	IIIB	PBMC (resting) + PBMC	p24		0.25 µM	20%
Cc1ccnc2c1NC(=O)c1cccnc1N2C1CC1	LAV-1	HT4 + HT4-6C	syncytia		0.1 µM	71%
Cc1ccnc2c1NC(=O)c1cccnc1N2C1CC1	IIIB	PBL (resting) + PBL	RT activity		0.3 µM	88%
COc1ccc(CN[C@@H](C(=O)N[C@H]2c3ccccc3C[C@H]2O)[C@H](O)[C@H](Cc2ccccc2)NC(=O)[C@@H](NC(=O)OCc2ccccc2)C(C)(C)C)cc1	IIIB	Primary T4 cells + T4	p24		0.074 µM	90%
O=S(=O)(O)c1cc(N=C=S)ccc1/C=C/c1ccc(N=C=S)cc1S(=O)(=O)O	GB8	JM	syncytia		25 µg/mL	100%
C/C(=C(/CCO)SS/C(CCO)=C(\C)N(C=O)Cc1cnc(C)nc1N)N(C=O)Cc1cnc(C)nc1N	RF	U-937/HIV-1(RF) + U-937	p24		500 µM	80%
c1cc(CN2CCCNCCNCCCNCC2)ccc1CN1CCCNCCNCCCNCC1	CM235 CLADE E R5	PBMC	p24		0.1 µM	2%
Cc1cn([C@H]2C[C@H](N=[N+]=[N-])[C@@H](CO)O2)c(=O)[nH]c1=O	LAV-Bru	U-937	RT activity	14 d	0.2 µM	0%

2 of the rows above, restated:

compound,strain,cell line,read by,conditions,tested at,result
C/C(=C(/CCO)SS/C(CCO)=C(\C)N(C=O)Cc1cnc(C)nc1N)N(C=O)Cc1cnc(C)nc1N,RF,U-937/HIV-1(RF) + U-937,p24,,500 µM,80%
CCNc1cccnc1N1CCN(C(=O)c2cc3cc(OC)ccc3[nH]2)CC1,Seropositive clinical isolate D,PBMC,MTT,,1 µM,48%